Measured values from several laboratories, pooled; numbers as filed in NIAID ChemDB.

All rows: growth or infection tests; species: HIV-1; read-out: EC50

Conditions beyond the fields shown may differ between rows. An empty or dashed field is not shown. ECn: concentration that inhibits the pathogen or its effect by n%.

SMILES | read by | strain or isolate | cells | result
C#CCO[C@]12CS(=O)(=O)O[C@@]13[C@@H](CN2)O[C@@H](n1cc(C)c(=O)[nH]c1=O)[C@@H]3O[Si](C)(C)C(C)(C)C | - | IIIB | MT-4 | >25 µM
Cc1cc(C)cc(C(=O)c2c(C(C)C)c(=O)[nH]c(=O)n2Cc2ccccc2)c1 | cytopathic effect / MTT | - | MT-4 | 0.004 µg/mL
CC(C)C1=C2[C@H]3CC[C@@H]4[C@@]5(C)CC[C@H](OC(=O)[C@H]6C[C@@H](C(=O)O)C6(C)C)C(C)(C)[C@@H]5CC[C@@]4(C)[C@]3(C)CC[C@@]2(NC(=O)C(C)(C)NC(=O)c2ccc(N3CCN(C)CC3)cc2)CC1=O | p24 / ELISA | 92HT599 | MT-2 | <0.003 µM
CCCOC12CS(=O)(=O)OC13[C@@H](CN2)O[C@@H](n1cc(C)c(=O)[nH]c1=O)[C@@H]3O | - | IIIB | MT-4 | >250 µM
[2H]C(CCN)(CNC(=O)C[C@@]12CC[C@]3(C)[C@H](CC[C@@H]4[C@@]5(C)CC[C@H](OC(=O)[C@H]6C[C@@H](C(=O)O)C6(C)C)C(C)(C)[C@@H]5CC[C@]43C)C1=C(C(C)C)C(=O)C2)NC(=O)c1ccc(Cl)cc1 | p24 / ELISA | 92HT599 | MT-2 | <1 µM
Cc1cn([C@@H]2O[C@@H]3CN[C@@]4(OCC(C)(C)C)CS(=O)(=O)O[C@@]34[C@H]2O)c(=O)[nH]c1=O | - | IIIB | CEM | 22.5 µM
Cc1cc(C)c(Oc2ncc(N)c(Nc3ccc(C#N)cc3)n2)c(C)c1 | MTT | RES056 | MT-4 | 0.75 µM
CCCCCO[C@]12CS(=O)(=O)O[C@@]13[C@@H](CN2)O[C@@H](n1cc(C)c(=O)[nH]c1=O)[C@@H]3O[Si](C)(C)C(C)(C)C | - | IIIB | MT-4 | >5 µM
N#Cc1ccc(Nc2nc(Oc3c(Br)cc(Br)cc3Br)ncc2NC(=O)C(F)(F)F)cc1 | MTT | RES056 | MT-4 | 2.9 µM
CC(C)C1=C2[C@H]3CC[C@@H]4[C@@]5(C)CC[C@H](OC(=O)[C@H]6C[C@@H](C(=O)O)C6(C)C)C(C)(C)[C@@H]5CC[C@@]4(C)[C@]3(C)CC[C@@]2(NC(=O)C(C)(C)NC(=O)c2ccc(Cl)cc2OCCN2CCOCC2)CC1=O | p24 / ELISA | 92HT599 | MT-2 | <0.003 µM
CC(C)C1=C2[C@H]3CC[C@@H]4[C@@]5(C)CC[C@H](OC(=O)[C@H]6C[C@@H](C(=O)O)C6(C)C)C(C)(C)[C@@H]5CC[C@@]4(C)[C@]3(C)CC[C@@]2(CCNC(=O)c2nccn2C)CC1=O | p24 / ELISA | 92HT599 | MT-2 | <1 µM
COc1ccc(C(=O)NC(C)(C)C(=O)N[C@@]23CC[C@]4(C)[C@H](CC[C@@H]5[C@@]6(C)CC[C@H](OC(=O)[C@H]7C[C@@H](C(=O)O)C7(C)C)C(C)(C)[C@@H]6CC[C@]54C)C2=C(C(C)C)C(=O)C3)cc1 | p24 / ELISA | 92HT599 | MT-2 | <0.003 µM
CC(C)c1c(C(=O)c2cc(C(F)(F)F)cc(C(F)(F)F)c2)n(Cc2ccccn2)c(=O)[nH]c1=O | cytopathic effect / MTT | - | MT-4 | 1.8 µg/mL
CC(C)C1=C2[C@H]3CC[C@@H]4[C@@]5(C)CC[C@H](OC(=O)[C@H]6C[C@@H](C(=O)O)C6(C)C)C(C)(C)[C@@H]5CC[C@@]4(C)[C@]3(C)CC[C@@]2(NC(=O)C(C)(C)NC(=O)c2ccc(Cl)cc2O[C@@H]2CCOC2)CC1=O | p24 / ELISA | 92HT599 | MT-2 | <0.003 µM
N#Cc1ccc(Nc2nc(Oc3c(Br)cc(Br)cc3Br)ncc2N)cc1 | MTT | IIIB | MT-4 | 0.05 µM
CCO[C@]12CS(=O)(=O)O[C@@]13[C@@H](CN2)O[C@@H](n1cc(C)c(=O)[nH]c1=O)[C@@H]3O | - | IIIB | CEM | >250 µM
CC(C)C1=C2[C@H]3CC[C@@H]4[C@@]5(C)CC[C@H](OC(=O)[C@H]6C[C@@H](C(=O)O)C6(C)C)C(C)(C)[C@@H]5CC[C@@]4(C)[C@]3(C)CC[C@@]2(CCN(CCN(C)C)C(=O)c2cccc(Cl)c2)CC1=O | p24 / ELISA | 92HT599 | MT-2 | <1 µM
CC(C)C1=C2[C@H]3CC[C@@H]4[C@@]5(C)CC[C@H](OC(=O)[C@H]6C[C@@H](C(=O)O)C6(C)C)C(C)(C)[C@@H]5CC[C@@]4(C)[C@]3(C)CC[C@@]2(NC(=O)C(C)(C)NC(=O)c2ccc(Cl)cc2OCCN2CCCCC2)CC1=O | p24 / ELISA | 92HT599 | MT-2 | <0.003 µM
CCCOC12CS(=O)(=O)OC13[C@@H](CN2)O[C@@H](n1cc(C)c(=O)[nH]c1=O)[C@@H]3O[Si](C)(C)C(C)(C)C | - | IIIB | CEM | 1.4 µM
N#Cc1ccc(Nc2nc(Oc3c(Cl)cc(Cl)cc3Cl)ncc2NC(=O)C(F)(F)F)cc1 | MTT | IIIB | MT-4 | 0.064 µM
CO[C@]12CS(=O)(=O)O[C@@]13C(CN2)O[C@@H](n1cc(C)c(=O)[nH]c1=O)[C@@H]3O[Si](C)(C)C(C)(C)C | - | IIIB | MT-4 | 8.4 µM
CC(C)C1=C2[C@H]3CC[C@@H]4[C@@]5(C)CC[C@H](OC(=O)[C@H]6C[C@@H](C(=O)O)C6(C)C)C(C)(C)[C@@H]5CC[C@@]4(C)[C@]3(C)CC[C@@]2([C@@H](O)CNC(=O)C(C)(C)NC(=O)C2CCNCC2)CC1=O | p24 / ELISA | 92HT599 | MT-2 | <1 µM
CC(=O)Nc1cnc(Oc2c(C)cc(Br)cc2C)nc1Nc1ccc(C#N)cc1 | MTT | IIIB | MT-4 | 32 µM
CC(C)C1=C2[C@H]3CC[C@@H]4[C@@]5(C)CC[C@H](OC(=O)[C@H]6C[C@@H](C(=O)O)C6(C)C)C(C)(C)[C@@H]5CC[C@@]4(C)[C@]3(C)CC[C@@]2(CC(=O)NCc2ccc(N3CCOCC3)cc2)CC1=O | p24 / ELISA | 92HT599 | MT-2 | <1 µM
Cc1cc(C)cc(C(=O)c2c(C(C)C)c(=O)[nH]c(=O)n2Cc2ccnc(Cl)c2)c1 | cytopathic effect / MTT | - | MT-4 | 0.001 µg/mL
CC(C)C1=C2[C@H]3CC[C@@H]4[C@@]5(C)CC[C@H](OC(=O)[C@H]6C[C@@H](C(=O)O)C6(C)C)C(C)(C)[C@@H]5CC[C@@]4(C)[C@]3(C)CC[C@@]2(CC(=O)NCC2(N)CCC2)CC1=O | p24 / ELISA | 92HT599 | MT-2 | <1 µM
N#Cc1ccc(Nc2nc(Oc3c(Cl)cccc3Cl)ncc2NC(=O)C(F)(F)F)cc1 | MTT | RES056 | MT-4 | >190 µM
CCc1c(Sc2cc(C)cc(C)c2)n(Cc2ccncc2)c(=O)[nH]c1=O | cytopathic effect / MTT | - | MT-4 | 0.004 µg/mL
CC(=O)Nc1cnc(Oc2c(C)cc(C#N)cc2C)nc1Nc1ccc(C#N)cc1 | MTT | IIIB | MT-4 | 1.8 µM
CC(C)=CCOc1cc(NC(=S)c2ccsc2C)ccc1Cl | p24 | NL4-3 | CEM + CEM-SS | 0.006 µM
CC(=O)OCc1cc(Cn2c(C(=O)c3cc(C)cc(Cl)c3)c(C(C)C)c(=O)[nH]c2=O)cc(C)n1 | cytopathic effect / MTT | - | MT-4 | 0.0134 µg/mL

For reference, 3 entries again:

CO[C@]12CS(=O)(=O)O[C@@]13C(CN2)O[C@@H](n1cc(C)c(=O)[nH]c1=O)[C@@H]3O[Si](C)(C)C(C)(C)C ; strain or isolate: IIIB ; cells: MT-4 ; result: 8.4 µM
C#CCO[C@]12CS(=O)(=O)O[C@@]13[C@@H](CN2)O[C@@H](n1cc(C)c(=O)[nH]c1=O)[C@@H]3O[Si](C)(C)C(C)(C)C ; strain or isolate: IIIB ; cells: MT-4 ; result: >25 µM
CC(C)C1=C2[C@H]3CC[C@@H]4[C@@]5(C)CC[C@H](OC(=O)[C@H]6C[C@@H](C(=O)O)C6(C)C)C(C)(C)[C@@H]5CC[C@@]4(C)[C@]3(C)CC[C@@]2(CCN(CCN(C)C)C(=O)c2cccc(Cl)c2)CC1=O ; read by: p24 / ELISA ; strain or isolate: 92HT599 ; cells: MT-2 ; result: <1 µM